# The list shows a part of the results, in another mix than the full data. Records with an inconclusive call do not appear. Activity calls are given as the source filed them. Calls follow the shape of the dose curve; as a rule, active = well fitted activation curve with a large enough effect; inconclusive = small, poorly fitted or top-dose-only effect; inactive = flat fitted curve, though single readings scatter.
# Assay: qHTS for Inhibitors of Cell Surface uPA Generation: FP59 Counterscreen for Cherry-picked Compounds; also: 0% is about no effect
# Details: FP59 anthrax toxin cytotoxicity counterscreen, cells; at 115 µM (top of the series)
smiles,measurement,value
CCN(CC)CCCOC(=O)C(O)(c1ccccc1)c1ccccc1,activity (protection from FP59),inactive: -1.07%

# Source: PubChem BioAssay AID720517 (National Center for Advancing Translational Sciences (NCATS), 2013)
